# Data taken from PubChem BioAssay AID624173 (National Center for Advancing Translational Sciences (NCATS), 2012).
# Only a part is listed here, and it is no random draw. Some salts or complexes appear as unconnected parts, following the source record. Active and inactive are the calls of the source. Calls follow the shape of the dose curve; as a rule, active = well fitted inhibition curve with a large enough effect; inconclusive = small, poorly fitted or top-dose-only effect; inactive = flat fitted curve, though single readings scatter.
# Target: pyruvate kinase (Trypanosoma brucei) (UniProt Q57TT1)
# Experiment: qHTS of Trypanosoma Brucei Inhibitors; also: nearly all actives have a fitted effect of over 50% in size
# Conditions: TbPYK enzyme, Kinase-Glo Plus ATP luminescence, 45 min; at 76.8 µM (top of the series)
# % is scaled to controls: 0 for no effect and ±100 for the full control effect.
row,SMILES,"activity, negative = inhibition"
1,O=C(OC1CN2CCC1CC2)C1c2ccccc2Oc2ccccc21 (configuration not stated),inactive: -10.6%
2,CN(C)c1cccc(C(=O)NCC2(N3CCCCC3)CCCCC2)c1,inactive: -14.4%
3,O=[N+]([O-])c1cc([N+](=O)[O-])c(OC2CCCCC2O)c([N+](=O)[O-])c1 (configuration not stated),inactive: -9.18%
4,COc1ccc(CN(CCCl)CCCl)cc1Cl,inactive: -0.109%
5,CCCCn1nnnc1C(c1ccccc1OC(F)(F)F)N1CCC(n2c(=O)[nH]c3ccccc32)CC1 (configuration not stated),inactive: 4.05%
6,CC(C)c1ccc(NC2CCN(C(=O)OC(C)(C)C)CC2)cc1,inactive: -10.9%
7,CCCCn1nnnc1C(c1ccnc2ccccc12)N1CCC(n2c(=O)[nH]c3ccccc32)CC1 (configuration not stated),inactive: 0.885%
8,CCC(c1nnnn1C(C)(C)C)N1CCC(n2c(=O)[nH]c3ccccc32)CC1 (configuration not stated),inactive: -11.5%
9,O=C(NCC1(N2CCOCC2)CCCCC1)c1cc(F)c(F)cc1Cl,inactive: 14%
10,COc1cc(OC)c(C(=O)NCC2(N(C)C)CCCCC2)cc1OC,inactive: -11.1%
11,CN1CCC(Nc2cccc(F)c2)CC1,inactive: 4.13%
12,COc1ccc2c(c1O)-c1c(O)c(OC)cc3c1[C@H](C2)[N+](C)(C)CC3.O=[N+]([O-])c1cc([N+](=O)[O-])c([O-])c([N+](=O)[O-])c1[O-],inactive: -1.95%
13,O=C(NCC1(N2CCCCC2)CCCCC1)c1cncc(Br)c1,inactive: 4.43%
14,O=C(OC1CN2CCC1CC2)c1ccc([N+](=O)[O-])cc1 (configuration not stated),inactive: -0.743%
15,O=C(NCC1(N2CCOCC2)CCCCC1)c1ccccc1Br,inactive: 0.999%
16,CCCOc1ccc(C(=O)NCC2(N(C)C)CCCCC2)cc1OC,inactive: -3.33%
17,CCCCOc1ccccc1C(=O)NCC1(N2CCOCC2)CCCCC1,inactive: 2.32%
18,Cc1ccc(C(=O)NCC2(N(C)C)CCCCC2)o1,inactive: 1.55%
19,COc1ccc(C(c2nnnn2C2CCCC2)N2CCC(n3c(=O)[nH]c4ccccc43)CC2)cc1 (configuration not stated),inactive: 0.693%

row,SMILES,"activity, negative = inhibition"
1,O=[N+]([O-])c1cc([N+](=O)[O-])c(Nc2ccc(Cl)cc2)c([N+](=O)[O-])c1,inactive: -7.21%
2,O=C(NCC1(N2CCCCC2)CCCCC1)c1ccc(OC(F)F)cc1,inactive: -5.18%
3,CC(C)(C)n1nnnc1C(c1ccccc1OC(F)(F)F)N1CCC(n2c(=O)[nH]c3ccccc32)CC1 (configuration not stated),inactive: 3.36%
4,O=C(NCC1(N2CCCCC2)CCCCC1)c1cccc([N+](=O)[O-])c1,inactive: 0.797%
5,CCOc1ccc(C(=O)NCC2(N3CCOCC3)CCCCC2)cc1,inactive: 3.66%
6,CSc1ccc(C(=O)NCC2(N3CCOCC3)CCCCC2)cc1,inactive: 1.02%
7,O=c1[nH]c2ccccc2n1C1CCN(C(c2ccccc2OC(F)(F)F)c2nnnn2C2CCCC2)CC1 (configuration not stated),inactive: 4.05%
8,N#CC1(Nc2ccccc2)CCN(CCc2ccccc2)CC1,inactive: -2.99%
9,CCN1CCC(Nc2ccc(Cl)cc2)CC1,inactive: 1.54%
10,O=C(NCC1(N2CCCCC2)CCCCC1)c1cccc(C(F)(F)F)c1,inactive: -24.7%
11,CCCOc1cccc(C(=O)NCC2(N3CCOCC3)CCCCC2)c1,inactive: 2.78%
12,O=[N+]([O-])c1cc([N+](=O)[O-])c(NCC2CCS(=O)(=O)C2)c([N+](=O)[O-])c1 (configuration not stated),inactive: -12.8%
13,CC(C)c1ccc(C(=O)NCC2(N3CCOCC3)CCCCC2)cc1,inactive: 2.92%
14,COc1ccc(NC2CCN(C(=O)OC(C)(C)C)CC2)cc1,inactive: -7.21%
15,CN1CCN(CCOC(=O)C(O)(c2ccccc2)c2ccccc2)CC1,inactive: -2.32%
16,CCCCn1nnnc1C(c1cccc2ccccc12)N1CCC(n2c(=O)[nH]c3ccccc32)CC1 (configuration not stated),inactive: -0.31%
17,O=C(NCC1(N2CCOCC2)CCCCC1)c1cc(=O)[nH]c2ccccc12,inactive: -1.21%
18,COc1cc(C(=O)NCC2(N3CCCCC3)CCCCC2)ccc1OC(F)F,inactive: -2.46%
